In PMC6222558, “Synthesis and Evolution of Berberine Derivatives as a New Class of Antiviral Agents against Enterovirus 71 through the MEK/ERK Pathway and Autophagy” (Molecules : A Journal of Synthetic Chemistry and Natural …, 2018):

Tests used:
Format in all cases: cell-based, enterovirus 71 (EV71)
Conditions in all cases: ratio of TC50 and IC50
[1] = system: EV71 SHZH98 strain (genotype C4); test: CPE inhibition assay for anti-EV71, SHZH98 strain
Protocol: (§1) Thus, all newly synthesized BBR analogues were screened for their anti-EV71 potencies in African green monkey kidney (Vero) cells taking BBR as the positive control. EV71 strains used in the present study include different genotype strains, such as H strain (VR-1432, genotype C2), BrCr strain (VR-1775, genotype A), and JS-52 and SHZH98 (genotype C4). The potency against EV71 strains above mentioned of each tested compound was evaluated by the combination of its IC50 and selectivity index (SI) value as the important therapeutic indication.
(§2) Vero cells were purchased from the American Type Culture Collection (ATCC, […], MD, USA), and were cultured in Minimum Essential Medium (MEM) supplemented with 10% fetal bovine serum (FBS) (GIBCO, Grand Island, NY, USA) and antibiotics (100 U/mL penicillin and […] streptomycin) at 37 °C in a 5% CO2 incubator. EV71 strain SHZH98 isolated from the throat swab sample of an HFMD case occurring in 1998 in China was kindly provided by Dr. Qi Jin (Institute of Pathogen Biology, Chinese Academy of Medical Science and Peking Union Medical School, Beijing, China), and JS-52 strain was a kind gift from Dr. Xiangzhong Ye (Beijing Wantai Biological Pharmacy Enterprise Co., Ltd., Beijing, China). The EV71 BrCr and H strains were purchased from the ATCC. All of EV71 strains were passaged in Vero cells.
(§3) The anti-EV71 activities of all tested compounds were detected by the virus-induced CPE assay. Briefly, cells (3 × 10^4 cells/well) were plated into 96-well culture plates and incubated for 16 h. Then, remove the medium and infected cells with EV71 of 100 × TCID50 (50% tissue culture infective doses) in serum-free medium for 1 h at 37 °C. After that, the unbound viruses were removed and various concentrations of tested compounds were supplemented for incubation of another 72 h. […] TC50 defined as the concentration that leads to the 50% of CPE which determined by the same method in 72 h. In addition, the cells were stained the cells were colored with 0.5% crystal violet in 20% ethanol for 15 min at room temperature and the cells were imaged after rinsed with PBS.

[2] = system: EV71 JS-52 strain (genotype C4); test: CPE inhibition assay for anti-EV71, JS-52 strain
Protocol: as §1, §2, §3

[3] = system: EV71 H strain (VR-1432, genotype C2); test: CPE inhibition assay for anti-EV71, H strain
Protocol: as §1, §2, §3

[4] = system: EV71 BrCr strain (VR-1775, genotype A); test: CPE inhibition assay for anti-EV71, BrCr strain
Protocol: as §1, §2, §3

Row | Structure (SMILES) | SHZH98 Strain SI [1] | JS-52 Strain SI [2] | H Strain SI [3] | BrCr Strain SI [4]
1 | CCOC(=O)Oc1c(OC)ccc2cc3[n+](cc12)CCc1cc2c(cc1-3)OCO2 [2i, 2,3-Methylenedioxy-9-ethyloxyformyloxy-10-methoxy protoberberine chloride] | 3.65 | 3.83 | 5.37 | 4.97
2 | COc1cc2c(cc1OC)-c1cc3ccc(OC)c(OCC(=O)c4ccc(C)cc4)c3c[n+]1CC2 [4d, 2,3,10-Trimethoxy-9-p-tolylformylmethylenoxy protoberberine chloride] | – | 1.13 | – | 1.13
3 | CCOC(=O)COc1cc2c(cc1OC)-c1cc3ccc(OC)c(OC)c3c[n+]1CC2 [5a, 2,9,10-Trimethoxy-3-ethyloxyformylmethylenoxy protoberberine chloride] | 1.74 | 2.29 | 1.93 | 2.01
4 | CCOC(=O)COc1c(OC)ccc2cc3[n+](cc12)CCc1cc(OC)c(OC)cc1-3 [4a, 2,3,10-Trimethoxy-9-ethyloxyformylmethylenoxy protoberberine chloride] | – | – | 3.01 | –
5 | COc1ccc2cc3[n+](cc2c1OCC(=O)c1ccc(C(F)(F)F)cc1)CCc1cc2c(cc1-3)OCO2 [2g, 2,3-Methylenedioxy-9-p-trifloromethylphenylformylmethylenoxy-10-methoxy protoberberine chloride] | 4.46 | 4.62 | 3.47 | 5.18
6 | COc1ccc2cc3[n+](cc2c1OC(=O)OCc1ccccc1)CCc1cc2c(cc1-3)OCO2 [2h, 2,3-Methylenedioxy-9-benzyloxyformyloxy-10-methoxy protoberberine chloride] | – | – | – | 2.59
7 | COc1ccc2cc3[n+](cc2c1O)CCc1cc2c(cc1-3)OCO2 [compound 1] | 2.62 | 3.00 | 2.31 | 2.41
8 | COc1ccc2cc3[n+](cc2c1OCC(=O)C(C)(C)C)CCc1cc2c(cc1-3)OCO2 [2c, 2,3-Methylenedioxy-9-pivalylmethylenoxy-10-methoxy protoberberine chloride] | 3.24 | 3.84 | 2.02 | 6.54
9 | COc1ccc2cc3[n+](cc2c1OCC(=O)OCc1ccccc1)CCc1cc2c(cc1-3)OCO2 [2d, 2,3-Methylenedioxy-9-benzyloxyformylmethylenoxy-10-methoxyprotoberberine chloride] | 5.58 | 11.6 | 6.7 | 9.72
10 | COc1ccc2cc3[n+](cc2c1OCC(=O)c1ccc(C)cc1)CCc1cc2c(cc1-3)OCO2 [2e, 2,3-Methylenedioxy-9-p-tolylformylmethylenoxy-10-methoxy protoberberine chloride] | 5.08 | 5.40 | – | 6.47
11 | COc1ccc2cc3[n+](cc2c1OCC(=O)OCC(C)C)CCc1cc2c(cc1-3)OCO2 [2b, 2,3-Methylenedioxy-9-isobutyloxyformylmethylenoxy-10-methoxy protoberberine chloride] | 4.08 | 3.89 | – | 10.9
12 | COc1cc2c(cc1OC)-c1cc3ccc(OC)c(O)c3c[n+]1CC2 [compound 3] | 1.93 | 2.50 | 2.10 | 1.87
13 | COc1cc2c(cc1OCC(=O)c1ccc(C(F)(F)F)cc1)CC[n+]1cc3c(OC)c(OC)ccc3cc1-2 [5f, 2,9,10-Trimethoxy-3-p-trifloromethylphenylformylmethylenoxy protober berine chloride] | 2.09 | 5.36 | 3.54 | 5.63
14 | COc1cccc(C(=O)COc2cc3c(cc2OC)-c2cc4ccc(OC)c(OC)c4c[n+]2CC3)c1 [5e, 2,9,10-Trimethoxy-3-m-methoxyphenylformylmethylenoxy protoberberine chloride] | 3.03 | 3.18 | 2.65 | 3.01
15 | COc1cc2c(cc1OC(=O)OCc1ccccc1)CC[n+]1cc3c(OC)c(OC)ccc3cc1-2 [5g, 2,9,10-Trimethoxy-3-benzyloxyformyloxy protoberberine chloride] | 3.05 | 5.16 | 1.85 | 3.19
16 | COc1cc2c(cc1OC)-c1cc3ccc(OC)c(OC(=O)OCc4ccccc4)c3c[n+]1CC2 [4g, 2,3,10-Trimethoxy-9-benzyloxyformyloxy protoberberine chloride] | – | 2.72 | – | –
17 | COc1cc2c(cc1OCC(=O)c1ccc(C)cc1)CC[n+]1cc3c(OC)c(OC)ccc3cc1-2 [5d, 2,9,10-Trimethoxy-3-p-methylphenylformylmethylenoxy protoberberine chloride] | 3.41 | 4.55 | – | –
18 | COc1cc2c(cc1OC)-c1cc3ccc(OC)c(OCC(=O)OCc4ccccc4)c3c[n+]1CC2 [4c, 2,3,10-Trimethoxy-9-benzyloxyformylmethylenoxy protoberberine chloride] | – | 4.55 | – | 5.57
19 | COc1cccc(C(=O)COc2c(OC)ccc3cc4[n+](cc23)CCc2cc3c(cc2-4)OCO3)c1 [2f, 2,3-Methylenedioxy-9-m-methoxyphenylformylmethylenoxy-10-methoxy protoberberine chloride] | 4.97 | 5.74 | – | 4.17
20 | CCOC(=O)COc1c(OC)ccc2cc3[n+](cc12)CCc1cc2c(cc1-3)OCO2 [2a, 2,3-Methylenedioxy-9-ethyloxyformylmethylenoxy-10-methoxy protoberberine chloride] | 3.69 | 4.89 | 4.62 | 6.90
21 | COc1cc2c(cc1OCC(=O)OCc1ccccc1)CC[n+]1cc3c(OC)c(OC)ccc3cc1-2 [5c, 2,9,10-Trimethoxy-3-benzyloxyformylmethylenoxy protoberberine chloride] | 2.01 | 2.46 | 2.65 | 5.62
22 | COc1cc2c(cc1O)CC[n+]1cc3c(OC)c(OC)ccc3cc1-2 [JTH, jatrorrhizine, reference compound] | 1.73 | 1.73 | – | –
23 | COc1cc2c(cc1OCC(=O)C(C)(C)C)CC[n+]1cc3c(OC)c(OC)ccc3cc1-2 [5b, 2,9,10-Trimethoxy-3-pivalylmethylenoxy protoberberine chloride] | 1.20 | 2.44 | 2.02 | 2.44
24 | COc1ccc2cc3[n+](cc2c1OC)CCc1cc2c(cc1-3)OCO2 [BBR, berberine] | 5.22 | 10.5 | 6.93 | 15.6
25 | COc1cc2c(cc1OC)-c1cc3ccc(OC)c(OCC(=O)c4ccc(C(F)(F)F)cc4)c3c[n+]1CC2 [4f, 2,3,10-Trimethoxy-9-p-trifloromethylphenylformylmethylenoxy protoberberine chloride] | 3.73 | 5.65 | 3.73 | 4.64
26 | COc1cccc(C(=O)COc2c(OC)ccc3cc4[n+](cc23)CCc2cc(OC)c(OC)cc2-4)c1 [4e, 2,3,10-Trimethoxy-9-m-methoxyphenylformylmethylenoxy protoberberine chloride] | 5.18 | 7.35 | 10.5 | 8.36
27 | COc1ccc2cc3[n+](cc2c1OCC(=O)O)CCc1cc2c(cc1-3)OCO2 [2d-a, 2,3-Methylenedioxy-9-carboxylmethylenoxy-10-methoxy protoberberine chloride] | – | 3.00 | – | 3.00
28 | COc1cc2c(cc1OC)-c1cc3ccc(OC)c(OCC(=O)C(C)(C)C)c3c[n+]1CC2 [4b, 2,3,10-Trimethoxy-9-pivalylmethylenoxy protoberberine chloride] | – | 3.05 | – | 2.32
